PubChem BioAssay AID1259414 – Drosophila RNAi Screening Center – 2018
The deposit covers about 24,000 reagents; below is an unselected part of those that have a named target and a result. Over the whole deposit, about 1,210 (5%) were called active. 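Inactive calls also include excluded dsRNAs with several or no targets, genes unexpressed in JW18, and well A1, regardless of score.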 A number with no mark means an inactive call. A plus sign joins genes that one reagent is predicted to hit.

Aim: 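Fly genes that alter Wolbachia amount inside host cells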 (primary screen)
Cell system: Drosophila JW18 cells infected with Wolbachia
Reagents: long dsRNA against Drosophila genes, 0.25 µg dsRNA per well of a 384-well plate
Time to read-out: 5 days
Conditions: cells persistently infected with Wolbachia before knock-down; no added drug
Measurement: 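Automated imaging of bacterial rRNA staining divided by host cell count, reported as plate-normalised robust z-score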
Scale: Wolbachia per cell robust z: higher = more Wolbachia per host cell than the plate typical
Hit rule: 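Hit when robust z is 1.5 or more, or -1.5 or less, in at least two of three replicates; excludes dsRNAs with several or no targets, genes not expressed in JW18 and well A1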

predicted target | DRSC id | Wolbachia per cell robust z, rep 1 | Wolbachia per cell robust z, rep 2 | Wolbachia per cell robust z, rep 3
Cyp305a1 (Cytochrome P450 305a1) | DRSC11126 | 0.0771 | -0.555 | -0.538
Lint-O (L(3)mbt interactor in ovarian somatic cells) | DRSC18468 | -0.969 | 1.66 | 0.822
Lint-O (L(3)mbt interactor in ovarian somatic cells) | DRSC23789 | 2.33 | 0.262 | 0.772
OtopLa (Otopetrin-like a) | DRSC18133 | 1.04 | 1.45 | 0.899
OtopLa (Otopetrin-like a) | DRSC23226 | 0.502 | -0.758 | -0.0775
OtopLa (Otopetrin-like a) | DRSC29861 | -0.68 | -1.7 | -1.26
CG32388 + CG43439 | DRSC08861 | 1.09 | 0.376 | 1.85
EndoGI (Endonuclease G inhibitor) | DRSC01964 | 1.12 | 0.86 | 0.697
snRNA:U11 (small nuclear RNA U11) | DRSC36526 | 0.827 | -0.251 | -0.493
rb (ruby) | DRSC18826 | 0.743 | -1.55 | 0.688
rb (ruby) | DRSC27940 | -1.05 | -1.97 | 0.496
VhaM9.7-b (Vacuolar H[+] ATPase M9.7 subunit b) | DRSC11841 | 0.632 | 0.942 | -1.42
CG12480 | DRSC19460 | 0.509 | -4.94 | 0.931
CG12480 | DRSC27987 | -2.03 | -1.15 | -1.7
CG10433 | DRSC04068 | -0.0289 | -1.22 | -1.19
CG10433 | DRSC26255 | -0.969 | -0.762 | 0.459
l(2)46Cc (retired record) | DRSC06110 | -0.596 | 0.286 | 0.322
l(2)46Cc (retired record) | DRSC06236 | 0.829 | 0.994 | -3.11
CG15169 | DRSC02470 | 0.468 | 0.0275 | -0.069
dop (drop out) | DRSC10655 | -0.6 | -0.194 | -0.236
dop (drop out) | DRSC29525 | -0.789 | -2.24 | 0.0199
CG7997 | DRSC07052 | -0.248 | 0.531 | 0.223
CG7997 | DRSC25706 | -0.515 | -1.29 | -0.159
Pp2A-29B (Protein phosphatase 2A at 29B) | DRSC03400 | 0.727 | -0.143 | -0.0489
Pp2A-29B (Protein phosphatase 2A at 29B) | DRSC28394 | 0.308 | 0.138 | 0.227
saturn | DRSC09303 | -1.33 | -1.72 | 0.169
saturn | DRSC28436 | 0.61 | 1.57 | 1.44
Tmlh (Trimethyllysine hydroxylase) | DRSC15563 | -0.749 | -0.595 | -0.369
CG14966 | DRSC08425 | -0.63 | 1.01 | 0.107
iav (inactive) | DRSC18363 | -0.0556 | -0.732 | -1.03
iav (inactive) | DRSC25119 | 0.342 | 1.34 | -1.5
ND-51L1 (NADH dehydrogenase (ubiquinone) 51 kDa subunit-like 1) | DRSC06072 | 0.419 | 0.987 | 0.422
CG12914 | DRSC06229 | -0.833 | -4.82 | -0.0258
CG14507 | DRSC14859 | -1.14 | -0.415 | 0.503
CG14507 | DRSC27958 | -0.769 | -0.165 | 0.238
CG43295 | DRSC09416 | 1.16 | 0.776 | 0.798
CG12104 | DRSC08254 | 0.672 | 0.886 | 0.737
CG12104 | DRSC26773 | 0.0313 | -0.403 | 1.35
CG12209 | DRSC06119 | -0.977 | -0.731 | -3.53
CG32191 | DRSC10522 | 0.755 | 1.06 | 0.207
l(2)k10201 + CG33774 | DRSC37863 | -1.55 | 1.63 | 0.242
CG11656 | DRSC14338 | 0.101 | -0.825 | -0.0318
CG11656 | DRSC28955 | -1.42 | -1.19 | -0.573
Lasp | DRSC10379 | 0.13 | -0.198 | -0.943
Lasp | DRSC23555 | -4.01 | 0.394 | -0.36
aus (argus) | DRSC13471 | -4.3 | 0.117 | 0.693
aus (argus) | DRSC13473 | 0.24 | 0.737 | 0.63
aus (argus) | DRSC15157 | -11.7 (active) | -7.67 | 0.0564
aus (argus) | DRSC26783 | -0.718 | 0.806 | 0.387
Roc1a (Regulator of cullins 1a) | DRSC18483 | -1.94 (active) | 1.85 | 5.35
Osi19 (Osiris 19) | DRSC12569 | -0.222 | -2.77 | -7.63
heix (heixuedian) | DRSC03542 | -0.0539 | -0.2 | 0.621
Fancd2 | DRSC15208 | -0.677 | -0.684 | -0.517
Fancd2 | DRSC22763 | -0.042 (active) | -2.68 | -2.13
CG5539 | DRSC04510 | -0.158 | 0.913 | 1.84
CG14957 | DRSC08416 | -5.19 | 0.837 | 0.359
yellow-c | DRSC41322 | 0.56 | 0.663 | 0.656
CG2444 | DRSC19846 | -3.27 | 0.416 | 0.00294
aub (aubergine) | DRSC03486 | -0.648 | -0.613 | -0.224
aub (aubergine) | DRSC26878 | -0.246 | -1.3 | -0.946
MED11 (Mediator complex subunit 11) | DRSC23091 | -1 | -2.26 | -0.313
MED11 (Mediator complex subunit 11) | DRSC25948 | -0.129 | -0.621 | 0.00416
CG30356 | DRSC05119 | -2.2 | -2.66 | -0.688
iPLA2-VIA (calcium-independent phospholipase A2 VIA) | DRSC10699 | -7.58 | -0.149 | -0.342
CG8152 | DRSC07083 | -4.19 | -0.653 | 0.528
mRpL43 (mitochondrial ribosomal protein L43) | DRSC04508 | 0.397 (active) | -3.76 | -3.57
mRpL43 (mitochondrial ribosomal protein L43) | DRSC22571 | -0.389 | -1.45 | 0.84
CG12107 | DRSC06102 | -0.46 | -2.43 | 0.162
conu (conundrum) | DRSC07810 | -1.11 | -0.717 | 0.413
CG7191 | DRSC03022 | -0.868 | 0.901 | -0.614
CG7191 | DRSC26094 | -1.07 | 0.0501 | -2.43
CR18275 + CG32817 + CR18166 | DRSC17249 | -0.0812 | 0.39 | -0.48
l(2)05287 (lethal (2) 05287) | DRSC02151 | -2.62 | 0.673 | 0.575
l(2)05287 (lethal (2) 05287) | DRSC02152 | 0.636 | 0.645 | 0.89
l(2)05287 (lethal (2) 05287) | DRSC26660 | 0.684 | -0.356 | -0.93
SecS (Sec synthetase) | DRSC12222 | 0.181 | -0.0232 | -0.0998
CG31706 | DRSC22704 | 0.324 | 1.1 | -0.166
atos (atossa) | DRSC07318 | 0.314 | -3.84 | 0.511
Iru (Iruka) | DRSC14457 | 1.17 | 0.0227 | 1.13
TH1 | DRSC20289 | 0.792 | 0.816 | 0.866
CG7573 | DRSC10884 | 0.338 | -0.27 | -5.75
CG11912 | DRSC00332 | 0.0689 | -6.04 | 0.921
CG11600 | DRSC14332 | 0.29 | 0.285 | 0.247
CG11600 | DRSC24238 | 0.618 | -0.502 | -0.412
CG2269 | DRSC06833 | -1.14 | -1.18 | -2.59
Ilp4 (Insulin-like peptide 4) | DRSC10701 | -1.84 | 0.727 | 0.676
Ilp4 (Insulin-like peptide 4) | DRSC26585 | 0.0421 | -0.345 | 0.284

No new results follow: an excerpt of the list.
predicted target | DRSC id | Wolbachia per cell robust z, rep 1 | Wolbachia per cell robust z, rep 2 | Wolbachia per cell robust z, rep 3
Lint-O (L(3)mbt interactor in ovarian somatic cells) | DRSC18468 | -0.969 | 1.66 | 0.822
Lint-O (L(3)mbt interactor in ovarian somatic cells) | DRSC23789 | 2.33 | 0.262 | 0.772
OtopLa (Otopetrin-like a) | DRSC18133 | 1.04 | 1.45 | 0.899
OtopLa (Otopetrin-like a) | DRSC23226 | 0.502 | -0.758 | -0.0775
OtopLa (Otopetrin-like a) | DRSC29861 | -0.68 | -1.7 | -1.26
CG32388 + CG43439 | DRSC08861 | 1.09 | 0.376 | 1.85
EndoGI (Endonuclease G inhibitor) | DRSC01964 | 1.12 | 0.86 | 0.697
snRNA:U11 (small nuclear RNA U11) | DRSC36526 | 0.827 | -0.251 | -0.493
rb (ruby) | DRSC18826 | 0.743 | -1.55 | 0.688
rb (ruby) | DRSC27940 | -1.05 | -1.97 | 0.496
VhaM9.7-b (Vacuolar H[+] ATPase M9.7 subunit b) | DRSC11841 | 0.632 | 0.942 | -1.42
CG12480 | DRSC19460 | 0.509 | -4.94 | 0.931
CG12480 | DRSC27987 | -2.03 | -1.15 | -1.7
